Pooled drug test results. Numbers come from NIAID ChemDB, via PubChem.

Shared fields: whole-cell or culture tests; agent: HIV-1; read by: p24; endpoint: EC50

Two numbers with a dash give a range or band. ECn: concentration that inhibits the pathogen or its effect by n%. An empty or dashed field is not shown. Neighbouring rows are from separate reports.

smiles,cell line,mutations,strain or isolate,value
CO.COc1ccccc1CCNC(=S)[N-]c1ccccn1.COc1ccccc1CCNC(=S)[N-]c1ccccn1.[O]=[V+2],PBMC,,IIIB,0.12 µM
C=C1CN(S(C)(=O)=O)CCCN(Cc2ccccc2)CCCN(S(C)(=O)=O)C1,MT-4,,NL4-3,>75 µM
CC(C)(C)NC(=O)[C@H](Cc1ccccc1)NC(=O)CN(O)C(=O)[C@H](Cc1ccccc1)NC(=O)OCC1c2ccccc2-c2ccccc21,CEM,,IIIB,0.45 µM
CCN(CC)CCCC(C)Nc1ccnc2cc(Cl)ccc12,U-937,,,<100 µM
O=C(COc1ccc(Cl)cc1C(=O)c1ccccc1)c1cc2ccccc2[nH]1,C8166,,RF,>12.8 µM
CCN1c2ncc(CCOc3cccc4c3ccc[n+]4[O-])cc2C(=O)Nc2c(C)cc(Cl)nc21,C8166,RT-K103N Y181C,,0.022 µM
CN1CCN(c2c3c(nc4ccccc24)-c2ccsc2CC3)CC1,PBMC,,LAV,2 µM
NC(=O)C[C@H](NC(=O)c1ccc2ccccc2n1)C(=O)N[C@@H](Cc1ccccc1)[C@H](O)CN(Cc1ccccc1)S(=O)(=O)c1cccc(C(=O)O)c1,CEM,,IIIB,<10 µM
Cc1cn([C@H]2C=C[C@@H](COC(=O)NCCc3ccc(Br)cc3)O2)c(=O)[nH]c1=O,PBMC,,IIIB,49.5 µM
O=C(O)[C@H]1O[C@@H](Oc2cc3oc(-c4ccc(O)cc4)cc(=O)c3c(O)c2O)[C@H](O)[C@@H](O)[C@@H]1O,C8166,,IIIB,175 µM
Cc1ccc(CCNC(=O)OC[C@@H]2C=C[C@H](n3cc(C)c(=O)[nH]c3=O)O2)cc1,PBMC,,IIIB,>100 µM
CCN1c2ncc(CCOc3ccc(-c4ccc(C(=O)O)cn4)cc3C)cc2C(=O)N(C)c2cccnc21,C8166,RT-K103N Y181C,,0.01–0.05 µM
CN(C)CCNc1c2c(nc3ccccc13)-c1ccccc1CC2,PBMC,,LAV,1.6 µM
Nc1nc2c(ncn2[C@H]2C=C[C@@H](OCP(=O)(O)O)C2)c(=O)[nH]1,MT-4,,,138 µM
COC(=O)c1c2c(c(OC)c(Br)c1-c1c(Br)c(OC)c3c(c1C(=O)OC)OCO3)OCO2,H9,,IIIB,>45 µg/mL
C=C1CN(S(=O)(=O)c2ccc(C)cc2)CCCN(Cc2ccncc2)CCCN(S(=O)(=O)c2ccc(C)cc2)C1,MT-4,,NL4-3,6.13 µM
Cc1cn([C@H]2C=C[C@@H](COC(=O)NCCc3ccc(Cl)cc3)O2)c(=O)[nH]c1=O,PBMC,,IIIB,37.6 µM
Cc1ccc(S(=O)(=O)N2CCCN(Cc3ccccc3)CCCN(S(=O)(=O)c3ccc(C)cc3)CC(CO)C2)cc1,MT-4,,NL4-3,7.31 µM
COC(=O)[C@H](C)NP(=O)(OC[C@@H]1C=C[C@H](n2cc(C)c(=O)[nH]c2=O)O1)Oc1ccccc1,PBMC,,IIIB,0.002 µM
CC(C)CN(C[C@@H](O)[C@H](Cc1ccccc1)NC(=O)[C@@H](NC(=O)OCc1ccccn1)C(C)C)S(=O)(=O)c1ccc(F)cc1,CEM,,IIIB,<0.101 µM
c1ccc(CNCCc2ccc(CN3CCNCCCCCCCNCC3)cc2)nc1,PBMC,,NL4-3,0.032 µg/mL
C=C(C)COC(=O)N[C@@H](Cc1ccccc1)[C@H](O)CN(CC(C)C)S(=O)(=O)c1ccc(F)cc1,CEM,,IIIB,<1.001 µM
O=C(CSc1nnnn1-c1cccc2ccccc12)Nc1cccc(Cl)c1Cl,C8166,1(RT-K103N Y181C),RT-K103N Y181C,≥0.1 µM
COC(=O)[C@H](C)NP(=O)(OC[C@H]1O[C@@H](n2cc(C)c(=O)[nH]c2=O)C[C@@H]1N=[N+]=[N-])Oc1ccc(F)cc1,PBMC,,IIIB,0.039 µM
CC(C)=CCC[C@]1(C)C=Cc2c(ccc3c2C(=O)C(O)=C(C2=C(C4=C(O)C(=O)c5c(ccc6c5C=C[C@@](C)(CCC=C(C)C)O6)C4=O)C(=O)c4c(ccc5c4C=C[C@@](C)(CCC=C(C)C)O5)C2=O)C3=O)O1,MT-4,,RF,0.02 µM
Cc1c(O)cccc1C(=O)N(O)[C@@H](Cc1ccccc1)C(=O)N1CCC[C@@H]1C(=O)NC(C)(C)C,CEM,,IIIB,0.71 µM
CC(C)CN(C[C@@H](O)[C@H](Cc1ccccc1)NC(=O)OCc1cccnc1)S(=O)(=O)c1ccc(F)cc1,CEM,,IIIB,<0.101 µM
Cc1cn([C@H]2C=C[C@@H](CO)O2)c(=O)[nH]c1=O,CEM + CEM TK-,,IIIB,0.556 µM
COc1c(Br)c2c(c(OC)c1OC)-c1c(c(Br)c3c(c1OC)OCO3)C[C@@H](C)[C@@H](C)C2,H9,,IIIB,4 µg/mL
CCN(CC)CCOc1ccc(NC(=O)COc2ccccc2C(=O)c2ccc(F)cc2)cc1,C8166,,RF,<0.0862 µM
N#CC1CCCN1C(=O)C(Cc1ccccc1)NC(=O)OCC1c2ccccc2-c2ccccc21,CEM,,IIIB,>12 µM
COc1ccccc1N1CCN(c2c(F)cc3c(=O)c(C(=O)O)cn(C)c3c2CN(C)C)CC1,PBMC,,BaL,~0.16 µM
O=C(N[C@@H](Cc1ccccc1)C(=O)NCC[C@@H](CO)NC(=O)[C@H](Cc1ccccc1)NC(=O)OCC1c2ccccc2-c2ccccc21)OCC1c2ccccc2-c2ccccc21,CEM,,IIIB,0.11 µM
CCN1c2ncc(CCOc3ccc(-c4cn(C)cn4)cc3C)cc2C(=O)N(C)c2cccnc21,C8166,RT-K103N Y181C,,<0.01 µM
N[C@H]1CONC1=O,CEM,,N1T,<10 µg/mL
C=C1CN(S(=O)(=O)c2ccc(C)cc2)CCCN(C2CCCC2)CCCN(S(=O)(=O)c2ccc(C)cc2)C1,MT-4,,NL4-3,6.39 µM
COc1ccc(S(=O)(=O)N(CC2CCCC2)C[C@@H](O)[C@H](Cc2ccccc2)NC(=O)OCc2cccnc2)cc1,CEM,,IIIB,<0.1 µM
COc1c(Br)c2c(c(OC)c1OC)-c1c(c(Br)c(OC)c(OC)c1OC)C[C@H](C)[C@H](C)C2,H9,,IIIB,20 µg/mL
C[C@H]1[C@@H](OC(=O)CCC(=O)O)O[C@@H]2O[C@@]3(C)CC[C@H]4[C@H](C)CC[C@@H]1[C@@]24OO3,PM1,,BaL,>0.6 µM
Cc1ccc(S(=O)(=O)N2CCCN(Cc3ccccc3)CCCN(S(=O)(=O)c3ccc(C)cc3)CC(CCl)C2)cc1,MT-4,,NL4-3,2.2 µM
CCN1c2ncccc2NC(=O)c2cc(CCOc3ccc(-c4ccc[n+]([O-])c4)cc3C)cnc21,C8166,RT-K103N Y181C,,0.01–0.05 µM
CCN(CC)CCOc1ccc(NC(=O)COc2ccccc2C(=O)c2ccccc2)cc1,C8166,,RF,0.0033 µM
CC(C)CN(C[C@@H](O)[C@H](Cc1ccccc1)NC(=O)O[C@H]1CCOC1)S(=O)(=O)c1cccnc1,CEM,,IIIB,<0.101 µM
CN(C)CCNc1c2c(nc3ccccc13)-c1ccsc1CC2,PBMC,,LAV,4 µM
CC(C)CN(C[C@@H](O)[C@H](Cc1ccccc1)NC(=O)O[C@H]1CO[C@H]2OCC[C@H]21)S(=O)(=O)c1ccc2c(c1)OCO2,PHA-PBM,,BaL,0.0002 µM
CCN1c2ncc(CCOc3ccc(C(=O)NS(C)(=O)=O)cc3C)cc2C(=O)N(C)c2cccnc21,C8166,RT-K103N Y181C,,>0.05 µM
COC(=O)c1cc(-c2cc(C(=O)OC)c3c(c2OC)OCO3)c(OC)c2c1OCO2,H9,,IIIB,>1.8 µg/mL
Cc1cc2ccccc2c(-c2ccc3c4c(ccnc24)CCO3)c1[C@H](OC(C)(C)C)C(=O)O,PBMC,,HXB2,0.0072 µM
COC(=O)[C@H](C)NP(=O)(OC[C@@H]1C=C[C@H](n2cc(C)c(=O)[nH]c2=O)O1)Oc1ccc(Br)cc1,PBMC,,IIIB,0.022 µM
C=C1CN(S(=O)(=O)c2ccc(C)cc2)CCCN(C(=O)OCC)CCCN(S(=O)(=O)c2ccc(C)cc2)C1,MT-4,,NL4-3,27.15 µM
Cc1ccc(-c2ccc3c(c2)C=C(C(=O)Nc2ccc(C[N+](C)(C)C4CCOCC4)cc2)CCC3)cc1,PBMC,,TB6 CLADE C,<1 µM
COc1c(Br)c2c(c(OC)c1OC)-c1c(c(Br)c(OC)c(OC)c1OC)C[C@](C)(O)[C@@H](C)C2,H9,,IIIB,>25 µg/mL
COC(=O)[C@H](C)NP(=O)(OC[C@@H]1C=C[C@H](n2cc(C)c(=O)[nH]c2=O)O1)Oc1ccc(Cl)cc1,PBMC,,IIIB,0.001 µM
CC(C)(C)NC(=O)[C@H]1CCCN1C(=O)[C@H](Cc1ccccc1)N(O)C(=O)[C@H](Cc1ccccc1)NC(=O)OC(C)(C)C,CEM,,IIIB,0.452 µM
O=C(CSc1nnnn1-c1ccccc1C(F)F)Nc1ccccc1[N+](=O)[O-],C8166,,WT,<0.05 µM
Cc1cn([C@H]2C=C[C@@H](COC(=O)NCCc3cccs3)O2)c(=O)[nH]c1=O,PBMC,,IIIB,14 µM
C=C(COC)COC(=O)N[C@@H](Cc1ccccc1)[C@H](O)CN(CC1CCCC1)S(=O)(=O)c1ccc(OC)cc1,CEM,,IIIB,<1.001 µM
COC(=O)[C@H](C)NP(=O)(OC[C@H]1O[C@@H](n2cc(C)c(=O)[nH]c2=O)C[C@@H]1N=[N+]=[N-])Oc1ccccc1,PBMC,,IIIB,0.055 µM
CCN1c2ncc(CCOc3ccc(-c4ccc(CC(=O)O)c(C)c4)cc3C)cc2C(=O)N(C)c2cccnc21,C8166,RT-K103N Y181C,,0.01–0.05 µM
O=C(O)C(=O)/C=C(\O)c1cn(Cc2ccc(F)cc2)c2ccc(OCc3ccc(F)cc3)cc2c1=O,TZM-bl,,NL4-3,1 µM
Cc1ccccc1CNC(=O)COc1ccc(Cl)cc1C(=O)c1ccccc1,C8166,,RF,0.0813 µM
COC(=O)[C@H](C)NP(=O)(OC[C@H]1O[C@@H](n2cc(C)c(=O)[nH]c2=O)C[C@@H]1N=[N+]=[N-])Oc1ccc(OC)cc1,PBMC,,IIIB,0.057 µM
S=C(NCCc1ccccc1Cl)Nc1ccc(Br)cn1,PBMC,,IIIB,<0.001 µM
Cc1cc(C)c(-n2nnnc2SCC(=O)Nc2ccc3c(c2)OCO3)c(C)c1,C8166,,WT,<0.05 µM
CC(C)=CCOc1cc(NC(=S)c2ccsc2C)ccc1Cl,CEM + CEM-SS,,RF,0.004 µM
CC1C(Sc2nnnn2-c2cccc3ccccc23)C1c1ccccc1Cl,C8166,,WT,<0.05 µM
CCN1c2ncc(CCOc3ccc(C(=O)NC(C)(C)CC(=O)O)cc3C)cc2C(=O)N(C)c2cccnc21,C8166,RT-K103N Y181C,,>0.05 µM
CN(C)CCNc1cc(-c2ccccn2)nc2ccccc12,PBMC,,LAV,1.4 µM
COc1cc2c(c(OC)c1OC)-c1c(cc3c(c1OC)OCO3)C(OC(=O)c1ccccc1)[C@@](C)(O)[C@@H](C)C2,H9,,IIIB,0.006 µg/mL
CC(C)CN(C[C@@H](O)[C@H](Cc1ccccc1)NC(=O)OC(C)(C)C)S(=O)(=O)c1ccc(F)cc1F,CEM,,IIIB,<1.001 µM

The first 5 rows once more:

{"smiles": "CO.COc1ccccc1CCNC(=S)[N-]c1ccccn1.COc1ccccc1CCNC(=S)[N-]c1ccccn1.[O]=[V+2]", "cell line": "PBMC", "strain or isolate": "IIIB", "value": "0.12 µM"}
{"smiles": "C=C1CN(S(C)(=O)=O)CCCN(Cc2ccccc2)CCCN(S(C)(=O)=O)C1", "cell line": "MT-4", "strain or isolate": "NL4-3", "value": ">75 µM"}
{"smiles": "CC(C)(C)NC(=O)[C@H](Cc1ccccc1)NC(=O)CN(O)C(=O)[C@H](Cc1ccccc1)NC(=O)OCC1c2ccccc2-c2ccccc21", "cell line": "CEM", "strain or isolate": "IIIB", "value": "0.45 µM"}
{"smiles": "CCN(CC)CCCC(C)Nc1ccnc2cc(Cl)ccc12", "cell line": "U-937", "value": "<100 µM"}
{"smiles": "O=C(COc1ccc(Cl)cc1C(=O)c1ccccc1)c1cc2ccccc2[nH]1", "cell line": "C8166", "strain or isolate": "RF", "value": ">12.8 µM"}